In US20100249021A1:

What was measured:
[1] = biological target: membrane protein HA of human influenza virus A/Jiangxi/312/2005 (H3N2) (human influenza virus A/Jiangxi/312/2005 (H3N2)); assay: cell-based or functional assay
[2] = biological target: membrane protein HA of recombinant human influenza virus A/WSN/33 (H1N1) (human influenza virus A/WSN/33 (H1N1)), P03454; assay: cell-based or functional assay

For KESTQKAIDGVTAAAANKVNSIIDK (modifications not checked) [mutant polypeptide HR1-2], the IC50, plaque inhibition on MDCK cells [1] was 112 µM and the IC50, plaque inhibition on MDCK cells [2] was 110 µM.

NAELLVLMENERTLDFHDSNVKN (modifications not checked) [polypeptide HR2B] showed an Inhibitory rate (%) of plaques, peptide at 200 µM [1] of 15.2% and an Inhibitory rate (%) of plaques, peptide at 100 µM [2] of 43%.

Binder KESTQKIIDGVTNKVNSIIDK (modifications not checked) [mutant polypeptide HR1-1] has an IC50, plaque inhibition on MDCK cells [1] of 38.2 µM and an IC50, plaque inhibition on MDCK cells [2] of 29.3 µM.

For KESTQKAIDGVTNKVNSIIDK (modifications not checked) [polypeptide HR1 derived from strain QH], the IC50, plaque inhibition on MDCK cells [1] was 16.4 µM and the IC50, plaque inhibition on MDCK cells [2] was 11.1 µM.

With FHDSNVKNLYDKVRLQ (modifications not checked) [polypeptide HR2C] the Inhibitory rate (%) of plaques, peptide at 200 µM [1] was 17.1% and the Inhibitory rate (%) of plaques, peptide at 100 µM [2] was 29.6%.

For RRIENLNKKMEDGFLDVWTY (modifications not checked) [polypeptide HR2A], the Inhibitory rate (%) of plaques, peptide at 200 µM [1] was 51.4% and the Inhibitory rate (%) of plaques, peptide at 100 µM [2] was 42%.
